PubChem BioAssay AID1259414 – Drosophila RNAi Screening Center | 2018
The deposit covers about 24,000 reagents; this is an unselected part of those with a known target gene and a result. In the full data, about 1,210 (5%) were called active. 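Inactive calls also include excluded dsRNAs with several or no targets, genes unexpressed in JW18, and well A1, regardless of score.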 Names joined by + are all predicted targets of the reagent. No sequences are given here.

Screen: 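Fly genes that alter Wolbachia amount inside host cells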 (primary screen)
Cells: Drosophila JW18 cells infected with Wolbachia
Reagent: long dsRNA against Drosophila genes, 0.25 µg dsRNA per well of a 384-well plate
Timing: 5 days
Challenge: cells persistently infected with Wolbachia before knock-down; no added drug
Read-out: 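Automated imaging of bacterial rRNA staining divided by host cell count, reported as plate-normalised robust z-score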
Scale: Wolbachia per cell robust z: higher = more Wolbachia per host cell than the plate typical
Hit rule: 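Hit when robust z is 1.5 or more, or -1.5 or less, in at least two of three replicates; excludes dsRNAs with several or no targets, genes not expressed in JW18 and well A1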

CG8774 [DRSC16445]
- Wolbachia per cell robust z, rep 1: 0.411
- Wolbachia per cell robust z, rep 2: -0.399
- Wolbachia per cell robust z, rep 3: -0.182
- Outcome: inactive

CG7856 [DRSC04896]
- Wolbachia per cell robust z, rep 1: -0.152
- Wolbachia per cell robust z, rep 2: -1.48
- Wolbachia per cell robust z, rep 3: -1.2
- Outcome: inactive

Gat (GABA transporter) [DRSC17144]
- Wolbachia per cell robust z, rep 1: -4.18
- Wolbachia per cell robust z, rep 2: -0.29
- Wolbachia per cell robust z, rep 3: -6.48
- Outcome: inactive

pigeon [DRSC03565]
- Wolbachia per cell robust z, rep 1: 0.425
- Wolbachia per cell robust z, rep 2: 0.391
- Wolbachia per cell robust z, rep 3: 0.543
- Outcome: inactive

CG7083 [DRSC11136]
- Wolbachia per cell robust z, rep 1: -1.64
- Wolbachia per cell robust z, rep 2: 1.15
- Wolbachia per cell robust z, rep 3: 1.36
- Outcome: inactive

CG7083 [DRSC24327]
- Wolbachia per cell robust z, rep 1: -0.395
- Wolbachia per cell robust z, rep 2: 2.87
- Wolbachia per cell robust z, rep 3: 1.91
- Outcome: active

Prp31 (Pre-mRNA processing factor 31) [DRSC10735]
- Wolbachia per cell robust z, rep 1: 0.846
- Wolbachia per cell robust z, rep 2: -4.57
- Wolbachia per cell robust z, rep 3: -0.13
- Outcome: inactive

7SLRNA:CR32864 + 7SLRNA:CR42652 [DRSC22968]
- Wolbachia per cell robust z, rep 1: -0.88
- Wolbachia per cell robust z, rep 2: -0.827
- Wolbachia per cell robust z, rep 3: -0.119
- Outcome: inactive

CR43087 + CR43086 + CG34002 [DRSC11953]
- Wolbachia per cell robust z, rep 1: -1.04
- Wolbachia per cell robust z, rep 2: 0.14
- Wolbachia per cell robust z, rep 3: -0.415
- Outcome: inactive

bnk (bottleneck) [DRSC16912]
- Wolbachia per cell robust z, rep 1: 0.225
- Wolbachia per cell robust z, rep 2: -3.94
- Wolbachia per cell robust z, rep 3: -0.786
- Outcome: inactive

bnk (bottleneck) [DRSC29887]
- Wolbachia per cell robust z, rep 1: 0.481
- Wolbachia per cell robust z, rep 2: 0.319
- Wolbachia per cell robust z, rep 3: 0.785
- Outcome: inactive

Osi21 (Osiris 21) [DRSC02408]
- Wolbachia per cell robust z, rep 1: -0.718
- Wolbachia per cell robust z, rep 2: 0.966
- Wolbachia per cell robust z, rep 3: -0.731
- Outcome: inactive

CG33128 [DRSC00294]
- Wolbachia per cell robust z, rep 1: -1.68
- Wolbachia per cell robust z, rep 2: 1.05
- Wolbachia per cell robust z, rep 3: 0.179
- Outcome: inactive

CG33128 [DRSC28698]
- Wolbachia per cell robust z, rep 1: -1.15
- Wolbachia per cell robust z, rep 2: 0.117
- Wolbachia per cell robust z, rep 3: -0.312
- Outcome: inactive

pHCl-1 (pH-sensitive chloride channel 1) [DRSC09888]
- Wolbachia per cell robust z, rep 1: 0.242
- Wolbachia per cell robust z, rep 2: 0.794
- Wolbachia per cell robust z, rep 3: 0.54
- Outcome: inactive

pHCl-1 (pH-sensitive chloride channel 1) [DRSC09991]
- Wolbachia per cell robust z, rep 1: 0.164
- Wolbachia per cell robust z, rep 2: -1.43
- Wolbachia per cell robust z, rep 3: -0.306
- Outcome: inactive

pHCl-1 (pH-sensitive chloride channel 1) [DRSC10589]
- Wolbachia per cell robust z, rep 1: -7.01
- Wolbachia per cell robust z, rep 2: -1.48
- Wolbachia per cell robust z, rep 3: 0.929
- Outcome: inactive

pHCl-1 (pH-sensitive chloride channel 1) [DRSC29802]
- Wolbachia per cell robust z, rep 1: -0.00895
- Wolbachia per cell robust z, rep 2: 0.138
- Wolbachia per cell robust z, rep 3: -0.117
- Outcome: inactive

jeb (jelly belly) [DRSC06305]
- Wolbachia per cell robust z, rep 1: 1.2
- Wolbachia per cell robust z, rep 2: -0.0404
- Wolbachia per cell robust z, rep 3: 1.03
- Outcome: inactive

jeb (jelly belly) [DRSC06307]
- Wolbachia per cell robust z, rep 1: 0.704
- Wolbachia per cell robust z, rep 2: 0.467
- Wolbachia per cell robust z, rep 3: 1.05
- Outcome: inactive

jeb (jelly belly) [DRSC26882]
- Wolbachia per cell robust z, rep 1: -0.116
- Wolbachia per cell robust z, rep 2: 0.0946
- Wolbachia per cell robust z, rep 3: -0.661
- Outcome: inactive

CG42709 [DRSC10277]
- Wolbachia per cell robust z, rep 1: 0.695
- Wolbachia per cell robust z, rep 2: -0.116
- Wolbachia per cell robust z, rep 3: -0.271
- Outcome: inactive

CG42709 [DRSC25693]
- Wolbachia per cell robust z, rep 1: -0.339
- Wolbachia per cell robust z, rep 2: -0.0941
- Wolbachia per cell robust z, rep 3: -0.596
- Outcome: inactive

CG4751 [DRSC02776]
- Wolbachia per cell robust z, rep 1: -1.09
- Wolbachia per cell robust z, rep 2: -0.767
- Wolbachia per cell robust z, rep 3: -1.88
- Outcome: inactive

Copied from the list.
Entry of bnk (bottleneck) [DRSC16912] in “Wolbachia per cell robust z, rep 2”: -3.94
Osi21 (Osiris 21) [DRSC02408], Wolbachia per cell robust z, rep 2 → 0.966
